Compound potency records, mixed from different reports. Data source: NIAID ChemDB in PubChem.

Common to all: tests on isolated targets

a–b is a range or a potency band. Blank or dashed fields: not listed here. Fold resistance has wild type as its base. Inhibition is in % at the dose shown (toxicity tests: loss of growth or viability). ICn: concentration for n% inhibition. Lines come from different laboratories, so protocols vary.

| compound | strain or isolate | conditions | changes | measure | tested at | protein | method | organism | result |
|---|---|---|---|---|---|---|---|---|---|
| CC(C)[C@H](NC(=O)OCc1ccccn1)C(=O)N[C@@H](Cc1ccccc1)[C@H](O)[C@H](O)[C@H](Cc1ccccc1)NC(=O)CCC(=O)O |  |  |  | inhibition | 0.01 µM | Protease | fluorescence | HIV-1 | 68% |
| O=C1OCC2OC(O)C(O)C(O)C2OC(=O)c2cc(O)c(O)c(O)c2-c2c(O)c(O)c3oc(=O)c4c(c(O)c(O)c5oc(=O)c2c3c54)-c2c1cc(O)c(O)c2O |  |  |  | IC50 |  | RNase H + Reverse transcriptase | ELISA / RNase H | HIV-1 | 0.18 µM |
| N[C@@H](Cc1ccccc1)C(O)[C@@H](N)Cc1ccccc1 |  |  |  | inhibition | 50 µM | Protease | fluorescence | HIV-1 | 75% |
| Cc1c(Sc2ccccc2)n(COCCO)c(=O)[nH]c1=O |  |  | RT-V108I | fold resistance |  | Reverse transcriptase |  | HIV-1 | 2 |
| O=C(CO)N[C@@H]([C@@H](O)[C@H](O)[C@H](O)CO)[C@@H](O)C(=O)C(=O)O | MN |  |  | inhibition | 20 µM | gp120 |  | HIV-1 | 9.8% |
| Cc1cc(S(N)(=O)=O)ccc1NC(=O)COc1ccc(Cl)cc1C(=O)c1cc(Cl)cc(C#N)c1 |  |  | RT-E138K | fold resistance |  | Reverse transcriptase | fluorescence | HIV-1 | 2.33 |
| CCOC(=O)C(C(=O)OCC)c1cn(S(=O)(=O)c2ccc(C)cc2)c2ccc(NC(=O)c3cccc([N+](=O)[O-])c3)cc12 |  |  | G140S | fold resistance |  | Integrase | strand transfer / fluorescence | HIV-1 | 0.9 |
| O=C(O)C1(O)C[C@@H](O)C(O)[C@H](O)C1 |  |  |  | IC50 |  | RNase H | RNase H | HIV-1 | >260 µM |
| CCN1c2ncc(CCOc3ccc(C(=O)O)c4ccccc34)cc2C(=O)N(C)c2ccc(Cl)nc21 |  |  | RT-K103N Y181C | fold resistance |  | Reverse transcriptase | nucleotide incorporation / radiometric | HIV-1 | 1 |
| CC1(C)OC(=O)/C(=C/C(=O)c2cn(Cc3ccc(F)cc3)c3ccc(Br)cc23)O1 |  |  | G140S | fold resistance |  | Integrase | strand transfer / fluorescence | HIV-1 | 1 |
| O=C(O[C@@H]1Cc2c(O)cc(O)cc2O[C@@H]1c1ccc(O)c(O)c1)c1cc(O)c(O)c(O)c1 |  |  |  | inhibition | 100 µM | gp120 + CD4 | fluorescence | HIV-1 | 0% |
| COc1ccc(CN[C@@H](C(=O)N[C@H](C(=O)NCc2ccc(OC)cc2O)C(C)C)[C@H](O)[C@H](Cc2ccccc2)NC(=O)[C@@H](NC(=O)OCc2ccccc2)C(C)C)cc1 |  |  |  | Ki |  | Protease | substrate cleavage | HIV-2 | 0.01 µM |
| NC(=O)c1c(N)sc2c1CCCCC2 |  |  |  | IC50 |  | RNase H | fluorescence | HIV-1 | 4 µM |
| O=NNc1ccc(S(=O)(=O)c2ccc(NN=O)cc2)cc1 |  |  |  | IC50 |  | Integrase | strand transfer | HIV-2 | 12 µM |
| C=CCOC(=O)C1=C(C)NC2=[N+]3[C@@H](CC[C@@H]13)C[C@@H](CCCCC[C@@H](C)OCc1ccccc1)N2 | NL4-3 |  |  | inhibition | 5 µM | Nef | ELISA | HIV-1 | 85.4% |
| O=[N+]([O-])c1cc(S(=O)(=O)c2ccc(S)c([N+](=O)[O-])c2)ccc1S |  |  |  | IC50 |  | Integrase | 3′ processing | HIV-2 | 2.8 µM |
| Oc1[nH]c2ccc(Cl)cc2c1N=Nc1nc(-c2ccc(F)cc2F)cs1 |  |  |  | IC50 |  | RNase H | nucleotide incorporation / absorbance | HIV-1 | 10 µM |
| CC(C)c1nc(C(=O)NCc2ccc(F)cc2)c([O-])c(=O)n1C.CC(C)c1nc(C(=O)NCc2ccc(F)cc2)c([O-])c(=O)n1C.[Mg+2] |  |  |  | IC50 |  | RNase H | substrate cleavage | HIV-1 | 9.77 µM |
| Cc1cn([C@@H]2O[C@H](CO[Si](C)(C)C(C)(C)C)C3(OS(=O)(=O)C=C3N)[C@H]2O[Si](C)(C)C(C)(C)C)c(=O)n(C)c1=O |  |  | RT-E138K | inhibition | 150 µM | Reverse transcriptase | nucleotide incorporation | HIV | 23% |
| CCC(C1=C(O)CC2(CCCCC2)OC1=O)c1ccccc1 |  |  |  | Ki |  | Protease | fluorescence | HIV-2 | 0.37 µM |
| CC[C@H](C)[C@H](NC(=O)OCc1ccccc1)C(=O)N[C@@H](Cc1ccccc1)C(O)[C@H](Cc1ccccc1)NC(=O)OC(C)(C)C |  |  |  | IC50 |  | Protease | fluorescence | HIV-1 | >0.01 µM |
| CC(C)Nc1cccnc1N1CCN(C(=O)c2cc3ccccc3[nH]2)CC1 |  |  | RT-G190E | IC50 |  | Reverse transcriptase | nucleotide incorporation | HIV | 440 µM |
| CC(O)/C=C/c1ccc2c(c1)c(C(=O)/C=C1\OC(C)(C)OC1=O)cn2Cc1ccc(F)cc1 |  |  | Y143R | fold resistance |  | Integrase | strand transfer / fluorescence | HIV-1 | 1 |
| O=C(O)c1ccc(-c2cccc(/C=N/NC(=O)c3cc(O)c(O)c(O)c3)c2)cc1 |  |  | I505V (179) | IC50 |  | RNase H |  | HIV-1 | 0.3 µM |
| Cc1cn([C@@H]2O[C@H](CO[Si](C)(C)C(C)(C)C)C3(OS(=O)(=O)C=C3N)[C@H]2O[Si](C)(C)C(C)(C)C)c(=O)n(C)c1=O |  |  | RT-E138K | fold resistance |  | Reverse transcriptase | nucleotide incorporation | HIV | >183 |
| CCN1c2ncc(CCOc3ccc(CCC(=O)O)c4ccccc34)cc2C(=O)Nc2c(C)ccnc21 |  |  | RT-K103N Y181C | fold resistance |  | Reverse transcriptase | nucleotide incorporation / radiometric | HIV-1 | >10 |
| CC[C@H]1C=CCC[C@@]2(C[C@@H]3CC[C@H]4[C@H](C(=O)OCCCCCCCCCCCCCCCC(=O)N(CCC[NH3+])C[C@@H](O)CC[NH3+])[C@@]5(CCC[C@@H](C)O5)NC(=[N+]34)N2)O1 | NL4-3 |  |  | inhibition | 5 µM | Nef | ELISA | HIV-1 | 93.3% |
| CC[C@H](C)[C@@H](NC(=O)[C@@H](C[C@H](O)[C@H](CC(C)C)NC(=O)[C@H](Cc1cnc[nH]1)NC(=O)[C@H](Cc1ccccc1)NC(=O)[C@@H]1CCCN1C(=O)[C@@H](N)Cc1cnc[nH]1)C(C)C)C(=O)N[C@@H](Cc1cnc[nH]1)C(=O)O |  | pH 7.0 |  | inhibition | 1000 µM | Protease | HPLC | HIV-2 | 40% |
| O=C(NCCc1ccc(O)c(O)c1)c1cc2cc(O)c(O)cc2[nH]1 |  |  | Reverse transcriptase L503F | IC50 |  | RNase H + Reverse transcriptase | RNase H / fluorescence | HIV-1 | 65 µM |
| Cc1ccc(S(=O)(=O)n2cc(C(=O)/C=C3\OC(C)(C)OC3=O)c3cc(Br)ccc32)cc1 |  |  | G140S | fold resistance |  | Integrase | strand transfer / fluorescence | HIV-1 | 0.8 |
| Cc1ccc(C(=O)Nc2ccc3c(=O)n(O)c(=O)[nH]c3c2)cc1 |  |  |  | IC50 |  | RNase H | strand transfer / RNase H | HIV-1 | 3.73 µM |
| O=Cc1cc(S(=O)(=O)c2ccc(O)c(C=O)c2)ccc1O |  |  |  | IC50 |  | Integrase | 3′ processing | HIV-2 | 1.5 µM |
| [B]C(=O)N[C@H](CC[C@@H]1O[C@H](CO)[C@H](O)[C@H](O)[C@H]1O)C(=O)OC |  |  |  | inhibition | 1000 µg/mL | gp120 | ELISA | HIV-1 | 0% |
| C[C@@H]1O[C@@H](Oc2c(-c3cc(O)c(O)c(O)c3)oc3cc(O)cc(O)c3c2=O)[C@H](O)[C@H](O)[C@H]1O |  |  |  | IC50 |  | RNase H |  | HIV-1 | >500 µM |
| O=S(=O)(SC(Cl)(Cl)Cl)c1cccc(S(=O)(=O)c2cccc(S(=O)(=O)SC(Cl)(Cl)Cl)c2)c1 |  |  |  | IC50 |  | Integrase | strand transfer | HIV-2 | 40 µM |
| C=C(CC(=O)O)c1ccc(OCCc2cnc3c(c2)C(=O)N(C)c2cccnc2N3CC)c2ccccc12 |  |  | RT-K103N Y181C | fold resistance |  | Reverse transcriptase | nucleotide incorporation / radiometric | HIV-1 | 1–10 |
| CCc1cc(C(=O)OC)c(NC(=S)Nc2nc3cc(C)c(C)cc3s2)s1 |  |  |  | inhibition | 10 µM | Reverse transcriptase | nucleotide incorporation | HIV | 83% |
| CCN1c2ncc(CCOc3ccc(CC(=O)O)c4ccccc34)cc2C(=O)N(C)c2ccc(F)nc21 |  |  | RT-V106A | fold resistance |  | Reverse transcriptase | nucleotide incorporation / radiometric | HIV-1 | >10 |
| O=C(/C=C/c1ccc(O)c(O)c1)O[C@@H]1CC(O)(C(=O)O)C[C@@H](OC(=O)/C=C/c2ccc(O)c(O)c2)C1O |  |  |  | IC50 |  | RNase H |  | HIV-1 | >>97 µM |
| CC(C)[C@H](NC(=O)OCc1cccnc1)C(=O)N[C@@H](Cc1ccccc1)[C@@H](O)[C@@H](O)[C@H](Cc1ccccc1)NC(=O)OC(C)(C)C |  |  |  | IC50 |  | Protease | fluorescence | HIV-1 | >0.001 µM |
| O=C1N(Cc2ccc(CO)cc2)[C@H](COc2ccccc2)[C@H](O)[C@@H](O)[C@@H](COc2ccccc2)N1Cc1ccc(CO)cc1 |  |  | PR-I84V L90M | fold resistance |  | Protease | fluorescence | HIV | 0.913 |
| Fc1cccc(F)c1C1SCc2nc3ccccc3n21 |  |  |  | IC50 |  | Reverse transcriptase | nucleotide incorporation | HIV-2 | >300 µM |
| CC[C@H]1C(=O)Nc2ccc(F)cc2N1C(=O)OC(C)C |  |  | RT-N137T | IC50 |  | Reverse transcriptase | nucleotide incorporation / radiometric | HIV | 0.03 µM |
| COOCC1=C(C)N=C2S/C(=N\Nc3cc(C(=O)O)ccc3C)C(=O)N2C1c1ccccc1 | Clinical isolate |  |  | IC50 |  | RNase H | RNase H / fluorescence | HIV-1 | 44.86 µM |
| CC[C@H]1C=CCC[C@@]2(C[C@@H]3CC[C@@H]4[C@H](C(=O)OCCCCCCCCCCCCCCCC(=O)N(CCC[NH3+])CCCC[NH3+])[C@]5(CCC[C@@H](C)O5)NC(=[N+]34)N2)O1 | NL4-3 |  |  | IC50 |  | Nef | ELISA | HIV-1 | <5 µM |
| Cc1cn([C@@H]2O[C@H](CO[Si](C)(C)C(C)(C)C)C3(OS(=O)(=O)C=C3N)[C@H]2O[Si](C)(C)C(C)(C)C)c(=O)n(C)c1=O |  |  | RT-N137S | fold resistance |  | Reverse transcriptase | nucleotide incorporation / radiometric | HIV | 0.88 |
| CC(C)[C@H](NC(=O)CN1CCOCC1)C(=O)N[C@@H](Cc1ccccc1)C(O)[C@H](Cc1ccccc1)NC(=O)[C@@H](NC(=O)OCc1ccccc1)C(C)C |  |  |  | inhibition | 0.005 µM | Protease | fluorescence | HIV-1 | 53% |
| N#CC(C#N)=NNc1ccc(S(=O)(=O)c2ccc(NN=C(C#N)C#N)cc2)cc1 |  |  |  | IC50 |  | Integrase | strand transfer | HIV-2 | 38 µM |

A second listing of 4 rows from above:

compound | strain or isolate | conditions | changes | measure | tested at | protein | method | organism | result
CC(C)[C@H](NC(=O)OCc1ccccn1)C(=O)N[C@@H](Cc1ccccc1)[C@H](O)[C@H](O)[C@H](Cc1ccccc1)NC(=O)CCC(=O)O |  |  |  | inhibition | 0.01 µM | Protease | fluorescence | HIV-1 | 68%
CCOC(=O)C(C(=O)OCC)c1cn(S(=O)(=O)c2ccc(C)cc2)c2ccc(NC(=O)c3cccc([N+](=O)[O-])c3)cc12 |  |  | G140S | fold resistance |  | Integrase | strand transfer / fluorescence | HIV-1 | 0.9
CCN1c2ncc(CCOc3ccc(CCC(=O)O)c4ccccc34)cc2C(=O)Nc2c(C)ccnc21 |  |  | RT-K103N Y181C | fold resistance |  | Reverse transcriptase | nucleotide incorporation / radiometric | HIV-1 | >10
CC[C@H]1C(=O)Nc2ccc(F)cc2N1C(=O)OC(C)C |  |  | RT-N137T | IC50 |  | Reverse transcriptase | nucleotide incorporation / radiometric | HIV | 0.03 µM